Taken from: PubChem BioAssay AID1224833 (University of Georgia, 2016)

Test: 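Host factors restraining rotavirus as candidate antiviral genes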 (primary screen)
Cells: monkey MA104 kidney cells
Reagents: siRNA pool against human genes, 50 nM
Duration: 48 h knock-down before infection; read 24 h after infection
Conditions: infection with rotavirus strain RV3 two days after transfection; infectious dose for this stage not given
Measured: 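z-score of rotavirus antigen signal per well, from a fluorescent immunoassay, relative to non-targeting control wells on the same plate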
Reading the numbers: z-score vs non-targeting control: higher = more rotavirus replication than with non-targeting control
Hit rule: In these data the active calls have z-score vs non-targeting control at about -1 or lower, or at about 1 or higher
Meaning of the calls: active = z-score beyond 1 either way; inactive = z-score within 1 of zero
This is an unselected part of about 12,000 deposited reagents. About 5,600 of them (46%) count as active. 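Active calls cover z-scores past 1 in both directions, so they include lowered as well as raised rotavirus replication.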 A number with no mark means an inactive call.

RASGEF1A showed z-score vs non-targeting control -1.75 (active).
Silencing of B3GALT5 resulted in: z-score vs non-targeting control -0.676.
For YWHAH the deposit lists z-score vs non-targeting control -1.19 (active).
Silencing of FOXD4L6 resulted in: z-score vs non-targeting control 1.92 (active).
Knock-down of ZNF33B came out at: z-score vs non-targeting control -1.41 (active).
Silencing of C10orf67 resulted in: z-score vs non-targeting control -1.13 (active).
Silencing of ZFYVE19 resulted in: z-score vs non-targeting control -0.984.
ORC1 showed z-score vs non-targeting control -1.23 (active).
Silencing of PRKRIP1 resulted in: z-score vs non-targeting control -2.07 (active).
Against IL17REL the deposit lists z-score vs non-targeting control 1.11 (active).
ZCCHC12 gave z-score vs non-targeting control -1.59 (active).
With knock-down of SARNP, the screen gave z-score vs non-targeting control 0.392.
Against ASL, the entry reads z-score vs non-targeting control -2.03 (active).
Knock-down of RAB17 came out at: z-score vs non-targeting control 0.603.
Silencing of KRT19 resulted in: z-score vs non-targeting control 0.325.
After knock-down of HAUS7, the record shows z-score vs non-targeting control 0.716.
With knock-down of CTTN the results were z-score vs non-targeting control 1.01 (active).
After knock-down of ACRBP, the record shows z-score vs non-targeting control 0.114.
With knock-down of MRC1, the record shows z-score vs non-targeting control 0.284.
